Measured data: PubChem BioAssay AID504761 (Drosophila RNAi Screening Center, 2011)
In all, the deposit lists about 22,000 reagents; below is an unselected part of those that have a named target and a result. Of all reagents, 116 (0.52%) were called active. 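Calls depend on retest data that are not deposited; infection was ranked per plate without normalising between plates; the unit of the infection score is not given.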 The raw values are shown without normalisation. A number with no mark means an inactive call. A plus sign joins genes that one reagent is predicted to hit. Not stated in the record: the amount of reagent, the time to read-out.

Screen: 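Fly genes whose silencing reduces dengue virus type 2 infection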 (primary screen)
Cell system: D.Mel-2 cells from Drosophila
Reagent: long dsRNA against Drosophila genes
Treatment: infection with dengue virus type 2; dose and infection time not stated
Detection: 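Per well on two replicate plates, imaging gave the percent of cells positive for viral envelope protein, ranked by infection, and a nuclear count of cells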
Reading the numbers: infection score: higher = more virus-infected cells; cell count: higher = more cells in the well
Rule for the call: 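Very low infection ranking in both replicate wells (chance probability at most 0.065), then a retest showing infection dropped 1.5-fold or more at p below 0.05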
Calls: active = confirmed: knock-down lowers infection; inactive = not picked or not confirmed

| target gene | DRSC id | infection score, replicate 1 | infection score, replicate 2 | cell count, replicate 1 | cell count, replicate 2 |
| --- | --- | --- | --- | --- | --- |
| CG9427 | DRSC16490 | 4.79 | 7.95 | 7009 | 6632 |
| CG9427 | DRSC28856 | – | 3.25 | 372 | 1445 |
| CG5254 | DRSC18611 | 5.04 | 10.4 | 5640 | 3250 |
| CG13654 | DRSC14654 | 5.5 | 2.25 | 6595 | 6663 |
| CG12126 | DRSC06103 | 12.8 | 18.3 | 6275 | 4980 |
| CG15706 | DRSC06577 | 19.1 | 11.6 | 5601 | 6404 |
| Hibch | DRSC15705 | 18 | 5.54 | 6193 | 6612 |
| Hibch | DRSC27536 | 10.9 | 8.16 | 6124 | 7008 |
| CG3793 | DRSC01982 | 13.7 | 21.3 | 6419 | 6658 |
| CG15048 (retired record) | DRSC19624 | 8.91 | 3.03 | 6181 | 6412 |
| CG40486 | DRSC20619 | 1.1 | 6.77 | 6743 | 7062 |
| CG1909 | DRSC17150 | 2.72 | 2.89 | 6130 | 6447 |
| beta-Spec | DRSC20311 | 10.8 | 10.6 | 6631 | 6465 |
| CG32075 | DRSC10622 | 2.62 | 3.36 | 6309 | 5855 |
| CG32075 | DRSC29881 | 23.7 | 2.31 | 5068 | 6137 |
| CG11586 | DRSC08203 | 2.05 | 3.56 | 5990 | 6706 |
| CG11586 | DRSC27459 | 39.5 | 17.7 | 5227 | 6444 |
| CG11581 | DRSC19407 | – | 10.8 | 447 | 3143 |
| CG13796 + CG31904 | DRSC22161 | 2.87 | 7.63 | 766 | 1336 |
| CG32032 | DRSC08961 | 2.8 | 2.26 | 6251 | 6007 |
| CG9406 | DRSC04552 | 25.2 | 9.66 | 5948 | 5639 |
| CG6583 | DRSC02972 | 0.93 | 3.11 | 6230 | 6756 |
| CG6583 | DRSC27517 | 4.09 | 6.31 | 6569 | 6723 |
| rpk | DRSC12386 | 13.3 | 11.1 | 5892 | 6407 |
| rpk | DRSC21656 | 1.93 | 1.04 | 6329 | 6375 |
| Polr1A | DRSC07535 | 43.3 | 30.6 | 4977 | 5787 |
| CG1368 | DRSC19537 | 14.2 | 12.7 | 6036 | 1394 |
| CG1368 | DRSC25431 | 6.98 | 15.1 | 5962 | 5546 |
| Arl2 | DRSC14117 | 7.81 | 3.58 | 6708 | 6787 |
| Vps20 | DRSC04448 | 9.53 | 23.1 | 6285 | 6342 |
| RunxB | DRSC20395 | 0.93 | 1.82 | 6131 | 6477 |
| RunxB | DRSC20525 | 4.66 | 0.26 | 5624 | 6221 |
| RunxB | DRSC20526 | 15.3 | 9.18 | 3241 | 3169 |
| RunxB | DRSC23150 | 1.19 | 3.7 | 6913 | 6948 |
| RunxB | DRSC28799 | 24.2 | 14.8 | 5352 | 4340 |
| SelT | DRSC02732 | 2.8 | 4.25 | 5813 | 6166 |
| SelT | DRSC26033 | 23.8 | 3.61 | 5645 | 6034 |
| CG30384 | DRSC06032 | 4.39 | 4.42 | 6099 | 6747 |
| CG14230 | DRSC19586 | 2.95 | 2.34 | 5906 | 6145 |
| CG14230 | DRSC29188 | 13 | 19.8 | 5988 | 5532 |
| MKP-4 | DRSC19567 | 14.3 | 2.65 | 6213 | 6766 |
| MKP-4 | DRSC27673 | 3.92 | 15.8 | 6218 | 4883 |
| lectin-33A | DRSC02529 | 8.08 | 2.04 | 2821 | 6456 |
| lectin-33A | DRSC22116 | 1.23 | 1.06 | 6496 | 7051 |
| Pxn | DRSC08685 | 3.43 | 2.25 | 6359 | 6635 |
| Pxn | DRSC27895 | 19.1 | 19.5 | 6592 | 6423 |
| Dtg | DRSC15998 | 4.56 | 16.8 | 1513 | 5261 |
| Dtg | DRSC26947 | 10.2 | 22.7 | 6329 | 6232 |
| Nnf1b | DRSC22080 | 3.04 | 2.06 | 6668 | 6647 |
| Nnf1b | DRSC25920 | 2.3 | 0.88 | 5651 | 5444 |
| CG11777 | DRSC06081 | 12 | 6.4 | 5501 | 6669 |
| CG11777 | DRSC26750 | 3.66 | 6.69 | 6063 | 5949 |
| CG30479 | DRSC06735 | 12.1 | 6.02 | 5841 | 6648 |
| CG30479 | DRSC28843 | 20.6 | 25.8 | 5759 | 4715 |
| lncRNA:CR30055 | DRSC22439 | 2.65 | 11.1 | 6003 | 3850 |
| lncRNA:CR30055 | DRSC26506 | 2.37 | 2.79 | 6068 | 5851 |
| CG11357 | DRSC08183 | 2.1 | 1.54 | 6382 | 6287 |
| bowl | DRSC00805 | 2.18 | 3.73 | 6322 | 6548 |
| bowl | DRSC28379 | 3.15 | 3.81 | 1399 | 682 |
